A mixed list of measured activities; the numbers were collected in NIAID ChemDB.

Shared fields: host cell toxicity; cell line: MT-2; measure: CC50

CCn: concentration that lowers growth or viability of the cells by n%. Blank or dashed fields: not listed here. Conditions beyond the fields shown may differ between rows.

structure,read by,value
Cc1ccc(C)c(CS(=O)(=O)c2cccc[n+]2[O-])c1,,8 µg/mL
O=C(O)c1cc(-n2cccc2)ccc1Cl,XTT,335.7 µM
COc1cc(C)c(/C=C/C2NCCc3cc(OCc4ccccc4)c(OC)cc32)cc1OC,fluorescence,2.2 µM
C=CCn1nc(Cc2ccc(OC)c(OC)c2)c2ccccc2c1=O,propidium iodide,70.7 µM
COc1cc([N+](=O)[O-])c(S(=O)(=O)[O-])cc1N=N/C(=N\Nc1cc(S(=O)(=O)[O-])c([N+](=O)[O-])cc1OC)C(=O)Nc1ccccc1,trypan blue,672 µM
O=C1NC(=O)C(COCc2ccccc2)(COCc2ccccc2)N1,,>87 µM
O=[N+]([O-])c1cccc(-c2ccc3ccccc3n2)c1,MTT,136 µM
O=C(O)c1ccc(-c2c3nc(c(-c4ccc(C(=O)O)cc4)c4ccc([nH]4)c(-c4ccc(C(=O)O)cc4)c4nc(c(-c5ccc(C(=O)O)cc5)c5ccc2[nH]5)C=C4)C=C3)cc1,,30.9 µg/mL
COc1ccc(OC)c(C2SCC(=O)N2c2ccccn2)c1,MTT,>3 µM
C=CCN(C(=O)[C@H](Cc1cc(F)cc(F)c1)NS(=O)(=O)c1ccccc1S(=O)(=O)N[C@@H](Cc1cc(F)cc(F)c1)C(=O)N(CC=C)c1ccc(OC)cc1)c1ccc(OC)cc1,XTT,33.3 µM
Nc1cccc([C@@H]2C[C@H](N3CCCC3=O)c3cc(I)ccc3N2)c1,MTT,>50 µM
Cn1nc(NS(C)(=O)=O)c2c(Cl)ccc(-n3c([C@H](Cc4cc(F)cc(F)c4)NC(=O)Cn4nc(C(F)F)c5c4C(F)(F)[C@@H]4C[C@H]54)nc4nc(-c5cccnc5)ccc4c3=O)c21,XTT,>0.1 µM
O=C1O/C(=C\c2ccc(Cl)c(Cl)c2)c2c1cccc2[N+](=O)[O-],propidium iodide,<18.6 µM
O=C1NC(=O)C(CSCc2ccc(C(=O)O)cc2)(CSCc2ccc(C(=O)O)cc2)N1,,>100 µM
Nc1nc2c(ncn2[C@H]2C=C[C@@H](CO)C2)c(=O)[nH]1,,>100 µM
C=Cc1c(C)c2cc3nc(cc4[nH]c(cc5nc(cc1[nH]2)C(C)=C5CO)c(C)c4CCC(=O)O)C(CCC(=O)O)=C3C,,39 µg/mL
O=[N+]([O-])c1ccc[n+]([O-])c1SCc1ccccc1,,21 µg/mL
Cc1ccc2c(=O)[nH]nc(Cc3ccccc3Cl)c2c1,propidium iodide,>175 µM
N#CC1C=Cc2ccccc2N1C(=O)c1ccc(Cl)cc1,,>10 µM
COc1ccc(OC)c(C2SCC(=O)N2CCc2ccccc2)c1,MTT,>303 µM
O=C1CCCN1[C@H]1C[C@@H](c2cccc([N+](=O)[O-])c2)Nc2ccc(I)cc21,ATP,60.85 µM
COc1ccc2c(c1)C1(c3ccccc3)SCCN1C2=O,,19.1 µM
Cc1ccc(-c2c([C@H](OC(C)(C)C)C(=O)O)c(C)nc3ccccc23)cc1C,,>100 µM
C=CC1=C(C)C2=NC1=CC1=NC(=Cc3[n-]c4c(c3C)=C([O-])[C@H](C(=O)OC)C=4C3=NC(=C2)[C@@H](C)[C@@H]3CCC(=O)OC/C=C(\C)CCCC(C)CCCC(C)CCCC(C)C)C(CC)=C1C.[Mg+2],,>80 µg/mL
COc1ccc(C)cc1CS(=O)(=O)c1cccc[n+]1[O-],,26 µg/mL
COc1ccc2c(c1)[C@@H](N1CCCC1=O)C[C@@H](c1cccc([N+](=O)[O-])c1)N2,MTT,>50 µM
Cc1ccc(C)c(CSc2c(Cl)ccc[n+]2[O-])c1,,16 µg/mL
COc1ccc(OC)c(CCNC(=S)Nc2ccc(Br)cn2)c1,MTT,>1 µM
Cc1ccc(C(C)S(=O)(=O)c2c(C)ccc[n+]2[O-])c(C)c1,,>100 µg/mL
COc1ccc2nc(-c3cccc([N+](=O)[O-])c3)ccc2c1,ATP,>178 µM
Cn1nc(NS(C)(=O)=O)c2c(Cl)ccc(-n3c([C@@H](Cc4cc(F)cc(F)c4)NC(=O)Cn4nc(C(F)(F)F)c5c4C(F)(F)[C@@H]4C[C@H]54)nccc3=O)c21,XTT,>1 µM
COc1ccc(N(C)C(=O)[C@H](Cc2ccccc2)NC(=O)NS(=O)(=O)N[C@@H](Cc2ccccc2)c2nc(C)no2)cc1,XTT,100 µM
CC1=C(CCC(=O)O)c2cc3nc(cc4[nH]c(cc5[nH]c(cc1n2)c(C)c5C(O)CO)c(C)c4C(O)CO)C(C)=C3CCC(=O)O,,>80 µg/mL
COCCNC(=O)[C@@H](NC(=O)[C@H](Cc1ccc(OC)c(OC)c1OC)C[C@H](O)[C@H](Cc1ccccc1)NC(=O)OC(C)(C)C)C(C)C,,>100 µM
C=CSC(NC(=O)[C@H](Cc1ccccc1)NS(=O)(=O)N1CCOCC1)C(=O)N[C@@H](CC1CCCCC1)[C@@H](O)C[C@H](C(=O)NCCCC)C(C)C,,<13 µM
C=Cc1c(C)c2cc3[nH]c(cc4nc(cc5nc(cc1[nH]2)C(C)=C5CCC(=O)O)C(CCC(=O)O)=C4C)c(C)c3C=C,,8.9 µg/mL
Cc1ncc(N(C)C(=O)[C@H](Cc2cc(F)cc(F)c2)NC(=O)NS(=O)(=O)N[C@@H](Cc2cc(F)cc(F)c2)C(=O)N(C)c2cnc(C)nc2)cn1,XTT,25 µM
O=C1NC(=O)C(CSCc2ccccc2)(CSCc2ccccc2)N1,,>100 µM
CCCCCCCC/C=C\CCCCCCCOCCCOP(=O)(O)CO[C@H](CO)Cn1cnc2c(N)ncnc21,propidium iodide,7 µM
C=CCN(C(=O)[C@H](Cc1cc(F)cc(F)c1)NC(=O)c1nccnc1C(=O)N[C@@H](Cc1cc(F)cc(F)c1)C(=O)N(CC=C)c1ccc(OC)cc1)c1ccc(OC)cc1,XTT,100 µM
CC1=C(C(=O)Nc2ccc(Cl)c(C(=O)OC(C)C)c2)SCCO1,,>40 µM
C=CCN(C(=O)[C@H](Cc1cc(F)cc(F)c1)NC(=O)c1ccccc1C(=O)N[C@@H](Cc1cc(F)cc(F)c1)C(=O)N(CC=C)c1ccc(OC)cc1)c1ccc(OC)cc1,XTT,100 µM
Cc1ccc2c(=O)n(C)nc(Cc3ccc(Cl)c(Cl)c3)c2c1,propidium iodide,93.5 µM
O=C1NC(=O)C(CSc2ccccc2)(CSc2ccccc2)N1,,>50 µM
Cc1cnc(N2C(=O)CSC2c2c(Cl)cccc2Cl)c(C)c1,MTT,>65 µM
O=C1NC(=O)C(CSCc2ccc(Br)cc2)(CSCc2ccc(Br)cc2)N1,,>7 µM
Cn1nc(NS(C)(=O)=O)c2c(Cl)ccc(-n3c([C@H](Cc4cc(F)cc(F)c4)NC(=O)Cn4nc(C5CC5)c5c4C(F)(F)[C@H]4C[C@@H]54)nc4nc(OCCC(F)(F)F)ccc4c3=O)c21,XTT,>0.1 µM
Cn1nc(NS(C)(=O)=O)c2c(Cl)ccc(-n3c([C@H](Cc4cc(F)cc(F)c4)NC(=O)Cn4nc(C(F)F)c5c4C(F)(F)[C@@H]4C[C@H]54)nc4nc(-c5nccc(C(F)F)n5)ccc4c3=O)c21,XTT,>0.5 µM
Cc1ccc2c(c1)C(O)(Cc1ccc(Cl)c(Cl)c1)N1CCN=C21,propidium iodide,37.8 µM
COc1cc2c(c(OC)c1)[C@@H](N1CCCC1=O)C[C@@H](c1cccc([N+](=O)[O-])c1)N2,MTT,>50 µM
C=Cc1c(C)c2cc3[nH]c(cc4nc(cc5nc(cc1[nH]2)C(C)=C5CCC(=O)OC)C(CCC(=O)OC)=C4C)c(C)c3C=C,,>80 µg/mL
Cn1nc(NS(C)(=O)=O)c2c(Cl)ccc(-n3c(C(Cc4cc(F)cc(F)c4)NC(=O)Cn4nc(C(F)F)c5c4C(F)(F)[C@@H]4C[C@H]54)nccc3=O)c21,XTT,>1 µM
Cn1nc(NS(C)(=O)=O)c2c(Cl)ccc(-n3c([C@H](Cc4cc(F)cc(F)c4)NC(=O)Cn4nc(C5CC5)c5c4C(F)(F)[C@@H]4C[C@H]54)nc4nc(OCCC(C)(F)F)ccc4c3=O)c21,XTT,>0.1 µM
CC1=C(CCC(=O)O)c2cc3[nH]c(cc4[nH]c(cc5nc(cc1n2)C(CCC(=O)O)=C5CC(=O)O)c(CCC(=O)O)c4CC(=O)O)c(CCC(=O)O)c3CC(=O)O,,22 µg/mL
COc1cc(Cc2nn(C)c(=O)c3ccccc23)cc(OC)c1OC,propidium iodide,>147 µM
C=CCN(C(=O)[C@H](Cc1cc(F)cc(F)c1)NS(=O)(=O)NS(=O)(=O)N[C@@H](Cc1cc(F)cc(F)c1)C(=O)N(CC=C)c1ccc(OC)cc1)c1ccc(OC)cc1,XTT,100 µM
Nc1ncnc2c1ncn2C[C@@H](CO)OCP(=O)(O)O,propidium iodide,>100 µM
S=C1NC(=S)C(CSCc2ccccc2)(CSCc2ccccc2)N1,,>16 µM
CC(C)[C@H](NC(=O)[C@H](Cc1ccccc1)C[C@H](O)[C@H](Cc1ccccc1)NC(=O)OC(C)(C)C)C(=O)N[C@@H](Cc1ccccc1)C(=O)N1CCOCC1,,100 µM
CC(C)(C#Cc1ccc2c(=O)n(-c3ccc(Cl)c4c(NS(=O)(=O)C5CC5)nn(CC(F)F)c34)c([C@H](Cc3cc(F)cc(F)c3)NC(=O)Cn3nc(C(F)F)c4c3C(F)(F)[C@@H]3C[C@H]43)nc2c1)S(C)(=O)=O,XTT,>0.5 µM